These results are taken from publication PMC2885305.

By Km is commonly meant the concentration of substrate that gives half-maximal velocity. A word on the Vmax: it is the rate approached at saturating substrate.

Holding throughout (assay): purified protein
Conditions in all cases: 37.0 °C

Data set [1] deals with Nc1ncnc2c1ncn2[C@@H]1O[C@H](COP(=O)(O)OP(=O)(O)OP(=O)(O)O)[C@@H](O)[C@H]1O.
In data set [2] the test system is O=c1ccn([C@@H]2O[C@H](COP(=O)(O)OP(=O)(O)OP(=O)(O)O)[C@@H](O)[C@H]2O)c(=O)[nH]1.
Data set [3] has as its system Nc1nc2c(ncn2[C@@H]2O[C@H](COP(=O)(O)OP(=O)(O)OP(=O)(O)O)[C@@H](O)[C@H]2O)c(=O)[nH]1.

Consider “maltokinase (Mak) from Mycobacterium bovis BCG (Mycobacterium tuberculosis variant bovis BCG str. Tokyo 172)”, for which the Km in data set [1] came to 740 ± 120 µM; in data set [2], 1300 ± 130 µM; in data set [3] it was 1010 ± 170 µM. In addition, the Vmax in data set [1] stood at 21.4 µmol/min/mg; in data set [2], 7.07 µmol/min/mg; in data set [3], 18.6 µmol/min/mg.
